Assay results reported in US20240400620A1, “Compositions Containing Coronavirus Proteins and Epitopes” (priority 2021, published 2024).

Tests used:
[1] = tested on: activated CD4+ T cells from OC43-infected HLA-DRB1*0101 Ifnar1^−/− mice; format: cell-based
[2] = tested on: splenocytes or lung leukocytes from DNA-vaccinated HLA-DRB1*0101 mice; format: cell-based

Sequence	expansion of polyfunctional cross-reactive IFNγ+/TNF+ CD4+ T cells [1]	stimulation of IFNγ response (ELISpot) [2]
KRTATKAYNVTQAFG [N261-275]	significantly expanded	–
TGRLQSLQTYVTQQL [S998-1012]	–	significantly stimulated a response
